Measurements as given in PMC6753678, “Fueling Open Innovation for Malaria Transmission-Blocking Drugs: Hundreds of Molecules Targeting Early Parasite Mosquito Stages” (Frontiers in Microbiology, 2019).

Legend:
[1] = tested on: P. falciparum female gametocytes; experiment: P. falciparum female gametogenesis assay (Pf FGAA)
[2] = tested on: P. falciparum late stage (stages IV-V) gametocytes; experiment: P. falciparum late stage gametocyte ATP depletion assay (Pf GC-ATP)
[3] = unified cytotox over Pf FGAA IC50, red: <10-fold selectivity, green: >10-fold
[4] = unified cytotox over Pf GC-ATP IC50, red: <10-fold selectivity, green: >10-fold
[5] = unified cytotox / IC50, <10-fold red, >10-fold green

SMILES | Assay tox ratio Pf FGAA [1, 3] | Assay tox ratio Pf GC-ATP [2, 4] | Assay tox ratio Pf FGAA [1, 5] | Assay tox ratio Pf GC-ATP [2, 5]
COc1ccc2c(c1)CC(C)(C)NC2CCCCCCCCC1NC(C)(C)Cc2cc(OC)ccc21.O=C(O)C(=O)O (stereo not shown) [TCMDC-137935] | 3.72 | 6.93 | – | –
CC(C)c1ccc(CN2CCC(CNC(=O)c3cc(-c4cccc(F)c4)cs3)C2)cc1.O=C(O)C(F)(F)F (stereo not shown) [TCMDC-134437] | 4.22 | 12.68 | – | –
COc1cccc(OC)c1CN1CCC(N(C)CCCCCCCCN2CCC(OC(=O)Nc3ccccc3-c3ccccc3)CC2)CC1 [TCMDC-134684] | 1.18 | 2.57 | – | –
Fc1ccc2[nH]c(-c3ccc(-c4ccc(CN5CCC(CCN6CCCCC6)CC5)cc4)cc3)nc2c1.O=C(O)C(F)(F)F [TCMDC-133924] | 2.71 | 10.04 | – | –
CN(CCCNCc1ccc2ccccc2c1)CCCNCc1ccc2ccccc2c1.Cl [TCMDC-137908] | – | – | 55.19 | 96.93
CC(Cc1ccc(OCCCCOc2ccccc2)cc1)NCCC1CCCN1C (stereo not shown) [TCMDC-140017] | 5.62 | 11.81 | – | –
CN1CCN(CCCN(Cc2cccc(-c3ccc(CNC4CCCC4)cc3)c2)C(=O)/C=C/c2ccccc2)CC1.O=C(O)C(F)(F)F [TCMDC-140544] | 5.19 | 9.58 | – | –
FC(F)(F)c1ccc2[nH]c(-c3ccc(-c4cccc(CN5CCC(CCN6CCCCC6)CC5)c4)cc3)nc2c1.O=C(O)C(F)(F)F [TCMDC-133941] | 3.12 | 7.70 | – | –
CN1CCN(CCCNCc2cccc(-c3ccc(CNCCc4ccccc4)cc3)c2)CC1 [TCMDC-140643] | 6.85 | 31.65 | – | –
FC(F)(F)c1ccc2[nH]c(-c3ccc(-c4ccc(CNCCN5CCNCC5)cc4)s3)nc2c1.O=C(O)C(F)(F)F [TCMDC-132862] | 3.30 | 7.70 | – | –
Cl.c1ccc2c(NCCCCCCCCNc3ccnc4ccccc34)ccnc2c1 [TCMDC-137751] | 2.40 | 2.26 | – | –
CC(C)(C)c1ccc(CN2CCC(CNC(=O)c3cc(-c4cccc(Cl)c4)cs3)C2)cc1.O=C(O)C(F)(F)F (stereo not shown) [TCMDC-134446] | 9.47 | 15.47 | – | –
Br.C/C=C/C=C/C1=NCCc2cc(OCCC)ccc21 [TCMDC-137442] | 14.37 | 24.97 | – | –
SC(=Nc1ccc(Cl)c(Cl)c1)NN=Cc1ccccn1 [TCMDC-125522] | 75.56 | 89.77 | – | –
FC(F)(F)c1ccc2[nH]c(-c3ccc(-c4cccc(CNCCN5CCNCC5)c4)cc3)nc2c1.O=C(O)C(F)(F)F [TCMDC-132864] | 8.69 | 13.80 | – | –
N=C(/N=C(/NCCCCCCN/C(=N/C(=N)NCc1ccc(Cl)c(Cl)c1)N1CCCCC1)N1CCCCC1)NCc1ccc(Cl)c(Cl)c1 [TCMDC-131816] | 16.52 | 118.29 | – | –
CCCCOc1cc(OC)c2ccccc2c1CCNCCCCNCCc1c(OCCCC)cc(OC)c2ccccc12.CS(=O)(=O)O [TCMDC-137845] | – | – | 3.27 | 4.97
O=C(O)C(F)(F)F.O=S(=O)(NCCN1CCCC1)c1cccc(-c2ccc(CNC3Cc4ccccc4C3)cc2)c1 [TCMDC-132241] | 2.33 | 3.36 | – | –
COc1cc(NCCCNCc2cn(Cc3cc(Br)cc(Br)c3)c3ccccc23)nc2ccccc12 [TCMDC-140677] | 5.86 | 8.53 | – | –

SMILES | Assay tox ratio Pf FGAA [1, 3] | Assay tox ratio Pf GC-ATP [2, 4] | Assay tox ratio Pf FGAA [1, 5] | Assay tox ratio Pf GC-ATP [2, 5]
COc1ccc2cc(CNCCCCCCNCc3ccc4cc(OC)ccc4c3)ccc2c1.CS(=O)(=O)O [TCMDC-137797] | 3.88 | 3.39 | – | –
CCN(CC)CCCn1c(N)c(-c2nc3ccccc3[nH]2)c2nc(C#N)c(C#N)nc21 [TCMDC-123680] | 8.80 | 46.31 | – | –
COc1cc2ccccc2c(CNCCCCCCNCc2c(OC)c(OC)cc3ccccc23)c1OC.CS(=O)(=O)O [TCMDC-137795] | 7.01 | 4.46 | – | –
CCn1c(-c2nonc2N)nc2c(-c3cc4ccccc4s3)ncc(C(=O)N3CCC(N)C3)c21.O=C(O)C(F)(F)F (stereo not shown) [TCMDC-135281] | 5.02 | 6.43 | – | –
C=CCOc1ccc2ccccc2c1CNCCCCCCNCc1c(OCC=C)ccc2ccccc12.CS(=O)(=O)O [TCMDC-137340] | 2.75 | 7.71 | – | –
CC1(C)CC(NCCCCCCCOc2ccc(OCc3ccccc3)cc2)CC(C)(C)N1.Cl [TCMDC-138958] | 2.33 | 4.23 | – | –
CN1CCN(CCCNCc2cccc(Nc3nccc(Nc4ccc(Oc5ccccc5)cc4)n3)c2)CC1 [TCMDC-138616] | 5.02 | 15.39 | – | –
COc1ccc(OC)c(-c2cccc(-c3cccc(NC(=O)c4ccc([N+](=O)[O-])o4)c3)n2)c1 [TCMDC-124799] | 5.08 | 6.27 | – | –
FC(F)(F)c1ccc2[nH]c(-c3cccc(-c4ccc(CNCCN5CCNCC5)cc4)c3)nc2c1.O=C(O)C(F)(F)F [TCMDC-132872] | 5.99 | 12.46 | – | –
CC(CCCCCC(=O)Nc1ccc(CC(C)NCCc2cccc(Cl)c2)cc1)NCCc1cccc(Cl)c1 (stereo not shown) [TCMDC-139800] | 2.06 | 6.63 | – | –
CCn1c(-c2nonc2N)nc2c(-c3cccc(NC(=O)Nc4cccc(Cl)c4)c3)ncc(OCCCN)c21.O=C(O)C(F)(F)F [TCMDC-136193] | 40.34 | 21.91 | – | –
COc1cc2c(cc1CCNCCCCNCCc1cc3c(cc1OC)CCCC3)CCCC2.CS(=O)(=O)O [TCMDC-137319] | 2.10 | 22.19 | – | –
CC(C)(C)c1ccc(CN2CCC(CNC(=O)c3cc(-c4ccccc4Cl)cs3)C2)cc1.O=C(O)C(F)(F)F (stereo not shown) [TCMDC-134445] | 7.13 | 10.48 | – | –
CC(CNC(=N)c1cccc(C(=N)NCC(C)Oc2cccc(C3CCCCC3)c2)n1)Oc1cccc(C2CCCCC2)c1.Cl (stereo not shown) [TCMDC-137455] | 2.24 | 11.86 | – | –
CCc1c(CCNCCCCCCNCCc2ccc([N+](=O)[O-])cc2)ccc(OC)c1OC.Cl [TCMDC-132066] | 3.73 | 10.17 | – | –
Cc1oc(-c2ccc(Cl)cc2)cc1C(=O)NCCC1CCN(CCCCCNC(=O)/C=C/c2ccc(Cl)c(Cl)c2)CC1 [TCMDC-140009] | 2.02 | 0.68 | – | –
COc1cccc(OC)c1CN1CCC(N(C)CCCCCCCCCN2CCC(OC(=O)Nc3ccccc3-c3ccccc3)CC2)CC1 [TCMDC-134690] | 1.46 | 7.47 | – | –
COc1ccc(CNC2Cc3ccccc3C2)cc1-c1ccc(S(=O)(=O)NCCN2CCCC2)cc1.O=C(O)C(F)(F)F [TCMDC-132248] | 3.55 | 5.15 | – | –
CN(C)CCNCc1cccc(-c2ccc3c(Nc4ccc(Oc5ccccn5)cc4)ccnc3c2)c1 [TCMDC-138493] | 5.19 | 19.25 | – | –
